Test results as given in paper PMC4643982.
Where a protein sequence is shown, tags need not be part of it.

How the values were obtained:
[1] = target: T1, EutR::MBP (Salmonella enterica serovar Typhimurium SL1344) (UniProt Q9ZFU7); assay: EMSA; conditions: 1 mM ethanolamine, 150 nM vitamin B12, 25 mM MgCl2, 60 mM HEPES pH 7.5, 300 mM KCl, 25 mM MgCl2, 5 mM EDTA, 3 mM DTT, 500 ug/ml BSA, 50 ng poly-dIdC, 25 min at 25 C, recombinant protein, residues 2-350, protein details: MBP (pMAL-c5X fusion), label: 32P 5' end (T4 PNK), unlabeled as competitor, probe letters rebuilt from the primers and the genome
T1 sequence (looked up): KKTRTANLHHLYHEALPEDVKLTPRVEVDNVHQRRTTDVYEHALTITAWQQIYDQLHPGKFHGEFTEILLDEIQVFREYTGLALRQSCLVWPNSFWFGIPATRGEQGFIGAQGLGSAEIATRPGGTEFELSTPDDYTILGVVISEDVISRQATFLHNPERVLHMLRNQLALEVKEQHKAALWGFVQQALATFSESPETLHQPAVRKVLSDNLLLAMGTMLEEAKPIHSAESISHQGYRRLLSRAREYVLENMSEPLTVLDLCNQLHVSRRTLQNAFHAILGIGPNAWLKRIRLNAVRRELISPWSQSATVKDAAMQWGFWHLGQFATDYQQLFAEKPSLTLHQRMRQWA

[2] = target: T1, EutR::MBP (Salmonella enterica serovar Typhimurium SL1344); assay: competition with a labelled probe; conditions: unlabeled ssrB probe outcompetes labeled ssrB, 1 mM ethanolamine, 150 nM vitamin B12, 60 mM HEPES pH 7.5, 300 mM KCl, 25 mM MgCl2, 5 mM EDTA, 3 mM DTT, 500 ug/ml BSA, 50 ng poly-dIdC, 25 min at 25 C, recombinant protein, residues 2-350, protein details: MBP (pMAL-c5X fusion), label: 32P 5' end (T4 PNK), unlabeled as competitor, probe letters rebuilt from the primers and the genome

“ATAGCAAGATTTTCCAATCACTGGACCTCTTGCTGGCTGATATTGAAAATGCCGTATCGGCTGGAGAAAAAATCGATCAGTTAATTCACACATTAAAAGGCTGTTTAGGTCAAATAGGGCAGACTGAATTGGTATGCTATGTCATAGACATTGAGAATCGCGTAAAAATGGGGAAAATCATCGCGCTGGAGGAACTAACCGACTTACGCCAGAAAATACGTATGATCTTCAAAAACTACACCATTACTTAATATTATCTTAATTTTCGCGAGGGCAGCAAAATGAAAGAATATAAGATCTTATTAGTAGACGATCATGAAATCATCAT (double strand) [ssrB promoter probe]”: binds [1]; binds [2].
